Anti-infective test results gathered from many reports (values: NIAID ChemDB through PubChem).

Common to all: cytotoxicity tests; measure: CC50

Neighbouring rows are from separate reports. An empty or dashed field is not shown. a–b is a range or a potency band. CCn is the concentration with n% toxicity to the cells.

compound	method	cells	value
CC1=CC2c3c(C)cc(-c4cc5ccc(O)cc5o4)cc3O[C@@]3(c4ccc(O)cc4O)Oc4cc(O)ccc4[C@H](C1)C23	MTT	HepG2.2.5 cells	8.04 µM
CC(C)CCN([C@H](CO)CCC[C@@H](NC(=O)[C@@H](N)C(c1ccc(F)cc1)c1ccc(F)cc1)C1CC1)S(=O)(=O)c1ccc(CO)cc1	microscopy	T lymphoid cells	>10 µM
CCN(CC)C(=O)OCC1CN(C(=O)c2cc(OC)c(OC)c(OC)c2)CCN1C(=O)c1cc(OC)c(OC)c(OC)c1	neutral red	MDM	>1000 µM
NC(=O)CCNC(=O)c1ccccc1SCc1ccccc1	XTT	Monocyte macrophages	>100 µM
CC[C@@H]1CN2CC[C@@]34C5=C(C[C@]6(CN5c5ccccc53)C3=Nc5ccccc5[C@@]35CC[N+]3([O-])C[C@@H](CC)[C@@H]6C[C@@H]53)[C@H]1C[C@H]24	MTT	HL-60	22.33 µM
CCCCn1c(=O)c2ccccc2c2c(OC)c(C(O)(C(F)(F)F)C(F)(F)F)cc(OC)c21	tetrazolium	Replicon cells	>100 µM
Cc1cccnc1CNCc1nc2nccc(N3CCN(C)CC3)c2[nH]1	MTT	C8166	>10 µM
NC(=S)Nc1cccc(OCCCCCOc2ccc(-c3ccc(Br)cc3)cc2)c1	MTS	Ava5-EG(delta4AB)SEAP	>1 µM
CCCCn1c(=O)c2ccccc2c2cc(C(O)(C(F)(F)F)C(F)(F)F)c(C)cc21	tetrazolium	Replicon cells	28.9 µM
CCC(C)Oc1ccc(-c2cc3c(-c4ccnc(NC5CCCC5)n4)ccc(NC4CCCC4)n3n2)cc1	-	VERO 76	>100 µM
CC[C@@H]1CN2CC[C@]34c5ccccc5N5[C@H]6C7O[C@@]53[C@@H](C[C@@]6(O)OC7CO)[C@H]1C[C@H]24	MTT	HL-60	>50 µM
CCN(CC)C(=O)OCC1CN(C(=O)c2cc(OC)c(OC)c(OC)c2)CCN1Cc1ccccc1	neutral red	MDM	>100 µM
CCCN([C@H](CO)CCC[C@H](CC)NC(=O)[C@@H](NC)C(c1ccccc1)c1ccccc1)S(=O)(=O)c1ccc(CO)cc1	microscopy	T lymphoid cells	>10 µM
CCCCn1c(=O)c2cc3c(cc2c2cc(C(O)(C(F)(F)F)C(F)(F)F)c4c(c21)OCO4)OCO3	tetrazolium	Replicon cells	15.9 µM
Cc1c(C(=O)Nc2ccc(F)c(F)c2)c2n(c1C(=O)C(=O)N[C@@H]1COC[C@H]1N1CCOCC1)CCCC2	MTT	HepG2	>30 µM
Cc1cc(C)n(-c2nc3c(c(=O)n2-c2ccc4c(c2)ncn4C)C[C@@H](C)N(C(=O)c2ccc(Br)c(C(F)(F)F)c2)C3)n1	luminescence	HepG2.117	>0.5 µM
CCN([C@H](CO)CCC[C@H](C)NC(=O)[C@@H](NC(=O)OC)C(c1ccccc1)c1ccccc1)S(=O)(=O)c1ccc(CO)cc1	microscopy	T lymphoid cells	>10 µM
NC(=S)Nc1cccc(OCCCCCNc2ccccc2-c2ccco2)c1	MTS	Ava5-EG(delta4AB)SEAP	>1 µM
O=C1N=C(N2CCOCC2)S/C1=C\c1ccc(-c2ccc(C(=O)O)c(O)c2)o1	MTT	BAE	76 µM
CCNC(=S)Nc1ccc2c(c1)Cc1cc(Br)ccc1-2	MTS	Ava5-EG(delta4AB)SEAP	>1 µM
Cc1cc(C)n(-c2nc3c(c(=O)n2-c2ccc(OC[C@@H](O)CO)cc2)C[C@@H](C)N(C(=O)c2ccc(Br)c(C(F)(F)F)c2)C3)n1	luminescence	HepG2.117	>0.5 µM
C=C(C)[C@@H]1CC[C@]2(C(N)=O)CC[C@@]3(C)C(CCC4[C@@]5(C)CC/C(=N\O)C(C)(C)C5CC[C@]43C)C12	MTT	MOLT-4/8	1660 µM
O=C(O)c1ccc(-c2ccc(/C=C3\SC(=S)N(CCc4ccc(Cl)c(Cl)c4)C3=O)o2)cc1O	MTT	HT-29	>100 µM
CCN(CC)C(=O)OCC1CN(C(c2ccccc2)c2ccccn2)CCN1C(=O)c1cc(OC)c(OC)c(OC)c1	neutral red	MDM	≥100 µM
Cc1cc(C)n(-c2nc3c(c(=O)n2-c2ccc(OC[C@H](C)OP(=O)(O)O)cc2)C[C@@H](C)N(C(=O)c2ccc(Br)c(C(F)(F)F)c2)C3)n1	luminescence	HepG2.117	>0.5 µM
Cc1cc(OCCCCCCc2c(Cl)cnn2-c2ccccc2)c2ccccc2n1	crystal violet	WIS HELA	10 µg/mL
CN1CCN(c2ccnc3nc(CN(C)C4CCCc5cccnc54)[nH]c23)CC1	MTT	C8166	5 µM
CCCCn1c(=O)c2ccccc2c2cc(C(O)(C(F)(F)F)C(F)(F)F)cc(OC)c21	tetrazolium	Replicon cells	22.3 µM
Brc1ccccc1-c1cc2c(-c3ccnc(NC4CCCC4)n3)ccc(NC3CCCC3)n2n1	-	VERO 76	>40 µM
Cc1cc(CCCCCCCOc2nc3ccccc3[nH]2)on1	crystal violet	WIS HELA	50 µg/mL
Cc1cc(C)n(-c2nc3c(c(=O)n2-c2ccc(N4CCN(C(C)C)CC4)nc2)C[C@@H](C)N(C(=O)c2ccc(Br)c(C(F)(F)F)c2)C3)n1	luminescence	HepG2.117	>0.5 µM
Cc1cnsc1CCCCCCOc1ccc2c(c1)oc1ccccc12	crystal violet	WIS HELA	50 µg/mL
CCCCn1c(=O)c2cc(OC)ccc2c2c(OC)c(C(O)(C(F)(F)F)C(F)(F)F)c3c(c21)OCO3	tetrazolium	Replicon cells	>100 µM
O=C(NCc1ccc(Cl)cc1)c1cn2c(CCO)cc3cc(CN4CCOCC4)cc(c1=O)c32	MTS	HSB-2	>20.8 µM
CCN([C@H](CO)CCC[C@@H](NC(=O)[C@@H](NC(=O)OC)C(c1ccccc1)c1ccccc1)C1CC1)S(=O)(=O)c1ccc(N)cc1	microscopy	T lymphoid cells	>10 µM
NC(=S)Nc1cccc(OCCCCCOc2ccccc2-c2ccccc2)c1	MTS	Ava5-EG(delta4AB)SEAP	>1 µM
CCOC(=O)COc1ccc(-c2cc3c(-c4ccnc(NC5CCCC5)n4)ccc(NC4CCCC4)n3n2)cc1	-	VERO 76	>100 µM
Cc1cc(NC(=O)c2c(C)c(C(=O)C(=O)N[C@@H]3CCCN(C(=O)Nc4ccc(F)c(F)c4)C3)n(C)c2C)ccc1F	MTT	HepG2	5–30 µM
Cc1cc(C)n(-c2nc3c(c(=O)n2-c2ccc4c(cnn4C)c2)C[C@@H](C)N(C(=O)c2ccc(Br)c(C(F)(F)F)c2)C3)n1	luminescence	HepG2.117	>0.5 µM
CCN(CC)C(=O)OCC1CN(C(=O)c2ccc(OC)c(OC)c2)CCN1C(=O)c1ccc(OC)c(OC)c1	neutral red	MDM	>100 µM
CCCN([C@H](CO)CCC[C@H](CC)NC(=O)[C@@H](N)C(c1ccccc1)c1ccccc1)S(=O)(=O)c1ccc(CO)cc1	microscopy	T lymphoid cells	>10 µM
CCC1(NC(=O)C(=O)c2c(C)c(C(=O)Nc3ccc(F)c(C)c3)c(C)n2C)CCN(S(C)(=O)=O)CC1	MTT	HepG2	>30 µM
CCCC1(Cc2ccccc2)OS(=O)(=O)C=C1OCc1ccccc1	-	HEL fibroblasts	>200 µM
CC(C)=CCC/C(C)=C/[C@H]1C(=O)C(C)=C[C@@H]1O	-	HOG.R5	56.2 µM
CN(Cc1nc2ccccc2[nH]1)Cc1ncccc1CCC(=O)N(C)C	MTT	C8166	>10 µM
CCN(CC)C(=O)OCC1CN(C(=O)c2cc(OC)c(O)c(OC)c2)CCN1C(=O)c1cc(OC)c(OC)c(OC)c1	neutral red	MDM	>100 µM
CCC1(Cc2ccccc2)OS(=O)(=O)C=C1OCc1ccc(Cl)cc1	-	HEL fibroblasts	<200 µM
Cc1cc(NC(=O)c2c(C)c(C(=O)C(=O)NC3(CO)CCN(C(=O)c4ccnn4C)CC3)n(C)c2C)ccc1F	MTT	HepG2	>30 µM
CCC1(Cc2ccccc2)OS(=O)(=O)C=C1OCc1ccc(C(C)(C)C)cc1	-	HEL fibroblasts	>200 µM
Cc1cc(NC(=O)c2c(C)c(C(=O)C(=O)NC3CCC(S(C)(=O)=O)CC3)n(C)c2-c2ccncc2)ccc1F	MTT	HepG2	>30 µM
Cc1cc(C)n(-c2nc3c(c(=O)n2-c2cc(C)c4c(c2)ncn4C)C[C@@H](C)N(C(=O)c2ccc(Br)c(C(F)(F)F)c2)C3)n1	luminescence	HepG2.117	>0.5 µM
Fc1ccc(-c2cc3c(-c4ccnc(NC5CCC5)n4)ccc(NC4CCC4)n3n2)cc1	-	VERO 76	>250 µM
Cn1cc(C(=O)NCc2ccc(Cl)cc2)c(=O)c2c1SC(CN1CCOCC1)C2	MTS	CBL	>23.1 µM
Cc1cc(NC(=O)c2c(C)c(C(=O)C(=O)NC3(C)CCN(C(=O)N4CCOCC4)CC3)n(C)c2C)ccc1F	MTT	HepG2	>30 µM
Cc1cc(OCCCCCCc2sncc2C)c2ccccc2n1	crystal violet	WIS HELA	10 µg/mL
C=C(C)C(=O)CC/C(C)=C/[C@H]1C(=O)C(C)=C[C@@H]1O	-	HOG.R5	10.1–20.2 µM
Nc1ccn(C[C@@H](CO)OCP(=O)(O)O)c(=O)n1	-	HEL fibroblasts	74 µM
Cc1cc(CCCCCCCOc2cc(C)c3ccccc3n2)on1	crystal violet	WIS HELA	50 µg/mL
CC1=C[C@H](O)[C@@H](/C=C(\C)C/C=C/C(C)(C)O)C1=O	-	HOG.R5	>80 µM
O=C1/C(=C/c2ccc(-c3cc(C(F)(F)F)ccc3Cl)o2)SC(=S)N1Cc1ccc(F)cc1	MTT	Ramos	4.1 µM
CC[C@@H](CCC[C@@H](CO)N(CCCF)S(=O)(=O)c1ccc(N)cc1)NC(=O)[C@@H](NC(=O)OC)C(c1ccccc1)c1ccccc1	microscopy	T lymphoid cells	>10 µM
Cc1cc(NC(=O)c2c(C)c(C(=O)C(=O)NCC(C)(C)O)n(C)c2-c2ccsc2)ccc1F	MTT	HepG2	5–30 µM
CCCCN1CCN(C(=S)Nc2cccc(OCCCCCc3ccccc3)c2)C1=S	MTS	Ava5-EG(delta4AB)SEAP	>1 µM
CCc1cccnc1CN(CCCCN)Cc1nc2nccc(N3CCN(C)CC3)c2[nH]1	MTT	C8166	>10 µM
Cc1cc(CCCCCCCOc2ccc(-n3cncn3)cc2)on1	crystal violet	WIS HELA	750 µg/mL
CC[C@@H](CCC[C@@H](CO)N(CC(C)C)S(=O)(=O)c1ccc(N)cc1)NC(=O)[C@@H](NC(=O)OC)C(c1ccccc1)c1ccccc1	microscopy	T lymphoid cells	>10 µM
CCCCCNC(=S)Nc1ccc2c(c1)Cc1cc(Br)ccc1-2	MTS	Ava5-EG(delta4AB)SEAP	>1 µM
Cc1cc(C)n(-c2nc3c(c(=O)n2-c2ccc(N4CC[C@H](O)C4)nc2)C[C@@H](C)N(C(=O)c2ccc(Br)c(C(F)(F)F)c2)C3)n1	luminescence	HepG2.117	>0.5 µM
NC(=S)Nc1cccc(NCCCCc2ccccc2)c1	MTS	Ava5-EG(delta4AB)SEAP	>1 µM
CO[C@@H]1[C@H](O)[C@@H](CO)O[C@H]1n1ccc(N)nc1=O	-	HBIII27	>100 µM
Cc1cc(NC(=O)c2c(C)c(C(=O)C(=O)NC3(C)CCC(O)CC3)n(C)c2C(C)C)ccc1F	MTT	HepG2	>30 µM
Cc1cc(C)n(-c2nc3c(c(=O)n2-c2ccc(N4CCN(C)CC4)nc2)C[C@@H](C)N(C(=O)c2ccc(Br)c(C(F)(F)F)c2)C3)n1	luminescence	HepG2.117	>0.5 µM

Again, the opening 9 rows:

compound,method,cells,value
CC1=CC2c3c(C)cc(-c4cc5ccc(O)cc5o4)cc3O[C@@]3(c4ccc(O)cc4O)Oc4cc(O)ccc4[C@H](C1)C23,MTT,HepG2.2.5 cells,8.04 µM
CC(C)CCN([C@H](CO)CCC[C@@H](NC(=O)[C@@H](N)C(c1ccc(F)cc1)c1ccc(F)cc1)C1CC1)S(=O)(=O)c1ccc(CO)cc1,microscopy,T lymphoid cells,>10 µM
CCN(CC)C(=O)OCC1CN(C(=O)c2cc(OC)c(OC)c(OC)c2)CCN1C(=O)c1cc(OC)c(OC)c(OC)c1,neutral red,MDM,>1000 µM
NC(=O)CCNC(=O)c1ccccc1SCc1ccccc1,XTT,Monocyte macrophages,>100 µM
CC[C@@H]1CN2CC[C@@]34C5=C(C[C@]6(CN5c5ccccc53)C3=Nc5ccccc5[C@@]35CC[N+]3([O-])C[C@@H](CC)[C@@H]6C[C@@H]53)[C@H]1C[C@H]24,MTT,HL-60,22.33 µM
CCCCn1c(=O)c2ccccc2c2c(OC)c(C(O)(C(F)(F)F)C(F)(F)F)cc(OC)c21,tetrazolium,Replicon cells,>100 µM
Cc1cccnc1CNCc1nc2nccc(N3CCN(C)CC3)c2[nH]1,MTT,C8166,>10 µM
NC(=S)Nc1cccc(OCCCCCOc2ccc(-c3ccc(Br)cc3)cc2)c1,MTS,Ava5-EG(delta4AB)SEAP,>1 µM
CCCCn1c(=O)c2ccccc2c2cc(C(O)(C(F)(F)F)C(F)(F)F)c(C)cc21,tetrazolium,Replicon cells,28.9 µM